Measured values from several laboratories, pooled; numbers as filed in NIAID ChemDB.

All rows: growth or infection tests; agent: HIV-1; method: cytopathic effect / MTT; endpoint: EC50

Neighbouring rows are from separate reports.

structure,strain,changes,cells,value
Nc1ncn([C@H]2CO[C@H](CO)O2)c(=O)n1,IIIB,-,MT-2,>100 µM
N#Cc1cc2[nH]c3ccccc3c2n(-c2ccc([N+](=O)[O-])cc2)c1=O,I,RT-K101E K103N,MT-4,0.79 µM
CCCCCCCCCCCCCC(=O)NCC(C(=O)CCCCCCCCCCCCC)C(=O)NCCNC(=O)C(O)C(O[C@@H]1O[C@H](CO)[C@H](O)[C@H](O)[C@H]1O)C(O)CO,IIIB,-,MT-4,>100 µM
CC(C)/C=C1\C(=O)Nc2ccc(S(=O)(=O)N(CC(C)C)C[C@@H](O)[C@H](Cc3ccccc3)NC(=O)O[C@H]3CO[C@H]4OCC[C@H]43)cc21,F,PR-L10F M46I M71V I84V,MT-4,0.158 µM
Cc1ncn(Nc2cccc(Cl)c2)c1-c1cccc(C#N)c1,IIIB,-,MT-4,6.96 µM
CC(C)CN(C[C@@H](O)[C@H](Cc1ccccc1)NC(=O)O[C@H]1CO[C@H]2OCC[C@H]21)S(=O)(=O)c1ccc2c(c1)/C(=C/c1cccn1C)C(=O)N2,F,PR-L10F M46I M71V I84V,MT-4,0.032 µM
O=C1C(=O)c2ccccc2C(O)=C1C1=C(Cl)C(=O)c2ccccc2C1=O,IIIB,-,CEM,2.6 µM
CCC(C)Oc1nc(Cc2ccccc2)cc(=O)[nH]1,IIIB,-,MT-4,5.5 µM
Cc1nn([C@H]2CO[C@@H](CO)O2)c(=O)[nH]c1=O,IIIB,-,MT-2,>100 µM
Cc1cc(C#N)cc(C)c1OCC(=O)N[C@@H](Cc1ccccc1)[C@H](O)CN(CC(C)C)S(=O)(=O)c1ccc2nc(N)oc2c1,LAI WT,-,MT-4,0.0871 µM
Cc1cc(/C=C2\C(=O)Nc3ccc(S(=O)(=O)N(CC(C)C)C[C@@H](O)[C@H](Cc4ccccc4)NC(=O)O[C@H]4CO[C@H]5OCC[C@H]54)cc32)cc(C)c1O,LAI,-,MT-4,0.025 µM
CCc1c(C(=O)c2cc(C)cc(CF)c2)n(Cc2ccncc2)c(=O)[nH]c1=O,-,-,MT-4,0.003 µg/mL
COC1=C(C2=C(C3=C(O)C(=O)c4ccccc4C3=O)C(=O)c3ccccc3C2=O)C(=O)c2ccc3c(c2C1=O)C=CC(C)(C)O3,IIIB,-,CEM,6.7 µM
Cc1cccc(Nn2cnc(C)c2-c2ccccc2)c1,IIIB,-,MT-4,3.26 µM
Cc1noc(C)c1-c1ccc(N2C(=O)C(C#N)=CC3C2c2ccccc2N3C)cc1,LAI,-,MT-4,1–32 µM
Cc1cccc(Nn2c(-c3ccccc3)c(C)[nH]c2=S)c1,SO561945 (RT K103N Y181C),RT-K103N Y181C,MT-4,26.1 µM
CCc1c(C(=O)c2cc(C)cc(C)c2)n(Cc2cccnc2)c(=O)[nH]c1=O,-,-,MT-4,0.012 µg/mL
COc1ccc2c(c1)C(=O)C(=O)C(C1=C(Cl)C(=O)c3ccccc3C1=O)=C2O,IIIB,-,CEM,2.4 µM
COc1ccc(NC(=O)C2=CC3Nc4ccccc4C3N(c3ccc(OC)cc3)C2=O)cc1,LAI,-,MT-4,>32 µM
O=c1cc(Cc2ccccc2)nc(OCC2CCCO2)[nH]1,IIIB,-,MT-4,58 µM
COc1ccc2c(c1)C(=O)C(C1=C(O)c3ccccc3C(=O)C1=O)=C(Cl)C2=O,IIIB,-,CEM,6.2 µM
Cc1ccc(/C=C2\C(=O)Nc3ccc(S(=O)(=O)N(CC(C)C)C[C@@H](O)[C@H](Cc4ccccc4)NC(=O)O[C@H]4CO[C@H]5OCC[C@H]54)cc32)o1,F,PR-L10F M46I M71V I84V,MT-4,0.039 µM
Cc1ccc(Cl)c(NC(=S)NNC(=O)Cc2ccccn2)c1,IIIB,-,MT-4,>100 µM
Cc1cccc(Nn2c(C)c(C)[nH]c2=S)c1,NL4-3,-,MT-4,>360 µM
O=c1cc(Cc2ccccc2)[nH]c(=O)[nH]1,IIIB,-,MT-4,>200 µM
O=C(Cc1ccccn1)NNC(=S)Nc1cccc(C(F)(F)F)c1,IIIB,-,MT-4,>100 µM
CCCCCCCCCCCCCCNC(=O)C(CO[C@@H]1O[C@H](CO)[C@H](O)[C@H](O)[C@H]1O)NC(=O)CC(=O)NCCS(=O)(=O)O,LAI,-,CEM + CEM-SS,50 µM
Cc1cc(C)cc(C(=O)c2c(C(C)C)c(=O)[nH]c(=O)n2Cc2ccnc(Cl)c2)c1,-,-,MT-4,0.001 µg/mL
Cc1nn([C@@H]2CO[C@H](CO)O2)c(=O)[nH]c1=O,IIIB,-,MT-2,>100 µM
Cc1cc(C)cc(Sc2c(C(C)C)c(=O)[nH]c(=O)n2Cc2ccncc2)c1,-,-,MT-4,0.002 µg/mL
Cc1ncnc(C)c1OCC(=O)N[C@@H](Cc1ccccc1)[C@H](O)CN(CC(C)C)S(=O)(=O)c1ccc2nc(N)oc2c1,LAI WT,-,MT-4,0.0589 µM
CCn1c(C)c(C(=O)OC)c(C(=O)OC)c1Cc1ccccc1,IIIB,-,MT-4,3.2 µM
CNc1nc2ccc(S(=O)(=O)N(CC(C)C)C[C@@H](O)[C@H](Cc3ccccc3)NC(=O)COc3c(C)cc([N+](=O)[O-])cc3C)cc2o1,LAI WT,-,MT-4,0.0035 µM
Cc1ncn(Nc2ccccc2)c1-c1ccccc1,NL4-3,-,MT-4,20.98 µM
Cc1ccc(Cl)c(Nc2nnc(Cc3ccccn3)s2)c1,IIIB,-,MT-4,>100 µM
Cc1cc(C(=O)c2c(C(C)C)c(=O)[nH]c(=O)n2Cc2ccncc2)cc([N+](=O)[O-])c1,-,-,MT-4,0.0096 µg/mL
CCC(C)Oc1nc(Cc2ccccc2)c(C)c(=O)[nH]1,IIIB,-,MT-4,2.9 µM
Cc1cc(CF)cc(C(=O)c2c(C(C)C)c(=O)[nH]c(=O)n2Cc2ccncc2)c1,-,-,MT-4,0.002 µg/mL
COc1ccc2c(c1)C(=O)C(Cl)=C(C1=C(N)C(=O)c3ccccc3C1=O)C2=O,IIIB,-,CEM,2.2 µM
CCc1c(C(=O)c2cc(Cl)cc(Cl)c2)n(Cc2ccncc2)c(=O)[nH]c1=O,-,-,MT-4,0.012 µg/mL
Cc1cc(C)cc(Nn2c(-c3ccccc3)c(C)[nH]c2=S)c1,IIIB,-,MT-4,1.03 µM
Cc1c(Cc2ccccc2)nc(OC2CCCC2)[nH]c1=O,IIIB,-,MT-4,10 µM
O=C(O)CCCCCCCCCCCCC(=O)NC(CO[C@@H]1O[C@H](CO)[C@H](O)[C@H](O)[C@H]1O)C(=O)NCCO,IIIB,-,MT-4,>100 µM
Cc1c(Cc2ccccc2)nc(OC(C)C)[nH]c1=O,IIIB,-,MT-4,16 µM
Cc1nn([C@@H]2CO[C@@H](CO)O2)c(=O)[nH]c1=O,IIIB,-,MT-2,>100 µM
S=c1[nH]nc(Cc2ccccn2)n1-c1ccc(Cl)c(Cl)c1,IIIB,-,MT-4,>100 µM
Cc1cc(Cl)cc(C(=O)c2c(C(C)C)c(=O)[nH]c(=O)n2Cc2ccncc2)c1,-,-,MT-4,0.0023 µg/mL
Cc1cn([C@H]2C=C[C@@H](CO)O2)c(=O)[nH]c1=O,RD 04-RT-210W 215D K65R Recombinant,-,MT-4,0.53 µM
COc1ccc(Nc2nn3c(=O)c4ccccc4nc3s2)cc1,IIIB,-,MT-4,>99.15 µg/mL
COc1ccc(/C=C2\C(=O)Nc3ccc(S(=O)(=O)N(CC(C)C)C[C@@H](O)[C@H](Cc4ccccc4)NC(=O)O[C@H]4CO[C@H]5OCC[C@H]54)cc32)cc1,F,PR-L10F M46I M71V I84V,MT-4,0.034 µM
N#CC1=CC2C(c3ccccc3N2CCN2CCCC2)N(c2ccc(C#N)cc2)C1=O,LAI,-,MT-4,1–32 µM
CC(C)=CCC[C@]1(C)C=Cc2c(ccc3c2C(=O)C(O)=C(C2=C(C4=C(O)C(=O)c5c(ccc6c5C=C[C@@](C)(CCC=C(C)C)O6)C4=O)C(=O)c4c(ccc5c4C=C[C@@](C)(CCC=C(C)C)O5)C2=O)C3=O)O1,IIIB,-,CEM,0.06 µM
Cc1cc2[nH]cnc2c(C)c1OCC(=O)N[C@@H](Cc1ccccc1)[C@H](O)CN(CC(C)C)S(=O)(=O)c1ccc2nc(N)oc2c1,LAI WT,-,MT-4,0.0013 µM

The last 5 rows once more:

structure | strain | changes | cells | value
COc1ccc(Nc2nn3c(=O)c4ccccc4nc3s2)cc1 | IIIB | - | MT-4 | >99.15 µg/mL
COc1ccc(/C=C2\C(=O)Nc3ccc(S(=O)(=O)N(CC(C)C)C[C@@H](O)[C@H](Cc4ccccc4)NC(=O)O[C@H]4CO[C@H]5OCC[C@H]54)cc32)cc1 | F | PR-L10F M46I M71V I84V | MT-4 | 0.034 µM
N#CC1=CC2C(c3ccccc3N2CCN2CCCC2)N(c2ccc(C#N)cc2)C1=O | LAI | - | MT-4 | 1–32 µM
CC(C)=CCC[C@]1(C)C=Cc2c(ccc3c2C(=O)C(O)=C(C2=C(C4=C(O)C(=O)c5c(ccc6c5C=C[C@@](C)(CCC=C(C)C)O6)C4=O)C(=O)c4c(ccc5c4C=C[C@@](C)(CCC=C(C)C)O5)C2=O)C3=O)O1 | IIIB | - | CEM | 0.06 µM
Cc1cc2[nH]cnc2c(C)c1OCC(=O)N[C@@H](Cc1ccccc1)[C@H](O)CN(CC(C)C)S(=O)(=O)c1ccc2nc(N)oc2c1 | LAI WT | - | MT-4 | 0.0013 µM

Two numbers with a dash give a range or band. An empty or dashed field is not shown. ECn is the concentration giving n% inhibition of infection, replication or growth.